The values are deposited in ChEMBL (CHEMBL3988442, “University of Dundee, Small-Polar-MMV Screening Library” (2021)).

A: 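Whole-cell growth test on Mycobacterium tuberculosis, read after 3 days in glucose-containing 7H9 medium; the read-out is not stated. Concentration: 50 µM. Direction is inferred from retests: higher values go with more growth inhibition. Size under these conditions: about 69,000 compounds, about 760 of them at 50% or above in at least one test.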
B: 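Whole-cell growth test on Mycobacterium tuberculosis, read after 4 days in a medium based on cholesterol and the lipid DPPC; the read-out is not stated. Concentration: 50 µM. The record gives no direction; compounds that gave an IC50 in retests scored well above the rest, so higher reads as more growth inhibition. Of about 69,000 compounds tested this way, about 370 (0.54%) reached 50% or more in at least one test.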

Results are given as percent effect.
How 0% and 100% were set is not recorded. Most values in the screen are low, and negative values occur.
This is part of a subset picked to be rich in strong results.
Two or more numbers in one place are separate tests of the same structure; such repeats can differ widely.
A dash means the value is not listed here; it may have been measured.

Cc1ccc(-c2noc([C@@H]3Cc4nc[nH]c4CN3)n2)cc1 gave A: 53.92% and 37.27%.
c1ccc(-c2nc3c(c(NCCn4cccc4)n2)CCNCC3)nc1 gave A: 50.09%.
NCC1CCN(C2CCN(c3ccc(-c4ccco4)cc3)CC2)C1 (stereo not shown) gave A: 38.7% and 53.61%.
c1ccc2nc(N3CCOC(Cn4cccn4)C3)cnc2c1 (stereo not shown) gave A: 30.94%; B: -2.129%.
COCCNS(=O)(=O)c1cccc2c1CN(C(=O)c1cc(C)on1)CC2 gave A: 12.02% and -1.045%.
COCCC(=O)NCC(O)c1c(F)cccc1F (stereo not shown) gave A: 7.197%.
O=C(c1cccnc1)N(CCO)Cc1cc(Br)ccc1F gave A: 2.657% and 105.7%.
CCOC(=O)CN(CC(F)(F)F)C(=O)c1nc(C)n2ccccc12 gave A: 2.526% and -12.14%.
COc1ccc2[nH]c(C(=O)NCC3(N)CCCC3)cc2c1 gave A: 8.47%; B: -3.292%.
O=C(NCCCNC(=O)c1ccc(F)cc1F)c1cccc(O)c1 gave A: 33.7%; B: 8.262%.
Cn1cnc2c1CCN(Cc1csc(-c3ccccc3)n1)C2 gave A: -6.514%; B: -29.68%.
O=C(NCCO)Nc1c(F)cc(F)cc1-c1ccccc1 gave A: 3.894%.
NCC1CN(c2nc(-c3ccccc3)nc3c2CCNCC3)CCO1 (stereo not shown) gave A: 52.9%; B: -13.29%.
O=C(c1cc(C2CC2)[nH]n1)N1CCN(Cc2ccc(Cl)cc2)CC1 gave A: -0.5851% and 3.492%; B: -17.09%.
CC(NC(=O)c1cccs1)C(=O)NCc1ccccn1 (stereo not shown) gave A: -0.587%; B: 4.279%.
NCc1n[nH]c(-c2ccc(Br)cc2)n1 gave A: 67.61% and 1.143%.
COc1cc(C(=O)Nc2nc(C)no2)ccc1OC1CCCC1 gave A: -14.03%.
Cc1ccccc1CS(=O)(=O)Cc1nc(C2CC2)no1 gave A: 15.15%; B: 0.5152%.
CCn1cc(CN(C)S(=O)(=O)c2ccc(Cl)cc2)cn1 gave A: 19.45%.
CCc1nc(C)sc1CN(Cc1ccncc1)C1CCN(C)CC1 gave A: -28.09% and -4.998%.
Cc1nn(C)c(C)c1-c1cnc(C2CCCN(C)C2)cn1 (stereo not shown) gave A: 20.43%.
CS(=O)(=O)N1CCC(OCCCc2ccccc2)C1 (stereo not shown) gave A: 20.12% and 2.779%.
N#CCCCn1nnnc1Cc1ccc(Br)cc1 gave A: 66.16%; B: 32.64%.
CC(NCc1ccc(-c2ccc(Cl)cc2)o1)c1nnc2n1CCC2 (stereo not shown) gave A: -10.58%.
O=C(c1[nH]nc(C2CC2)c1Cl)N1CCN(C2CC2)CC1 gave B: 12.16%.
COc1cccc(CNC(C)Cn2cccn2)c1OC.Cl (stereo not shown) gave A: 33.73%.
COc1cc(CNc2nc(C3CC3)no2)cc(OC)c1OC gave A: 20.34%; B: 4.124% and -6.754%.
COCCN(C)CC1CCCN1S(=O)(=O)c1cc(C)oc1C (stereo not shown) gave A: 8.025% and 2.309%.
N[C@@H]1CCC[C@@H](Oc2ccc(F)cc2Oc2cccc(F)c2)[C@@H]1O gave A: 3.825%.
CN1CCN(C(=O)C2(S(C)(=O)=O)CCCC2)Cc2ccccc21 gave A: -1.224% and 3.877%; B: 12.01%.
[H][C@]12CC[C@]([H])(CN(Cc3cc(-c4ccccc4)no3)C1)N(CC1CC1)C2 gave A: 63.69%; B: 40.2% and 53.76%.
CN(C)c1nccc(NC(=O)c2ccncc2)n1 gave A: -15.78%; B: -3.443%.
CCOc1ccc(N2CCCN=C2NC(=O)c2ccc(Cl)cc2)cc1 gave A: 61.44%; B: -10.21%.
COc1cccc2c3c(c(=O)n(C)c12)CCC(C)(C)O3 gave A: 12.49% and 59.56%.
CC(C)NC(=O)Cn1cc(-c2ccccc2)cn1 gave B: 15.53%.
Cc1cnc(N2CCc3c(CN(C)Cc4ccco4)cncc3C2)nc1 gave A: 18.92%.
CCOc1cc(CNc2nnn(C)n2)ccc1OCc1ccc(Cl)cc1 gave A: 36.54%.
FC(F)(F)c1ccc2nc([C@H]3CCN(C4CCC4)C3)[nH]c2c1 gave A: 32.85% and 3.753%; B: 14.15%.
CCOCCCNC(=O)c1cn(CC)nc1C gave A: 8.262%.
Cc1ccc(C(=O)NCCCN(C)S(C)(=O)=O)cc1-n1cccc1 gave A: 67.12%.
Cc1cccc(CN(Cc2ccccn2)S(=O)(=O)N(C)C)c1 gave A: 2.633% and -33.69%.
COCc1csc(NC(=O)NCc2ccc(C)s2)n1 gave A: 9.293% and 9.405%; B: 0.8826%.
CN(CC1(C)COC1)C(=O)c1cc(-c2ccnn2C)nc2ccccc12 gave B: -11.75% and 7.419%.
CCNc1nnc(SC(C(=O)NCc2cccnc2)C(C)C)s1 (stereo not shown) gave A: 1.826% and 12.8%; B: 4.478%.

For reference, 6 entries once more:

structure,A,B
CCNc1nnc(SC(C(=O)NCc2cccnc2)C(C)C)s1 (stereo not shown),1.826 and 12.8,4.478
N[C@@H]1CCC[C@@H](Oc2ccc(F)cc2Oc2cccc(F)c2)[C@@H]1O,3.825,-
Cc1ccc(-c2noc([C@@H]3Cc4nc[nH]c4CN3)n2)cc1,53.92 and 37.27,-
COc1cccc2c3c(c(=O)n(C)c12)CCC(C)(C)O3,12.49 and 59.56,-
COc1cc(CNc2nc(C3CC3)no2)cc(OC)c1OC,20.34,4.124 and -6.754
COCc1csc(NC(=O)NCc2ccc(C)s2)n1,9.293 and 9.405,0.8826